Measured values reported in patent publication US8557565B2, “Degradation of polycyclic aromatic hydrocarbons to render them available for biodegradation” (priority 1999, dated 2013).

Test: Biological incubation of ozonated column effluent, species identified by GC/MS
Parameters: key: •: found; ◯: not found
Details: pyrene column effluent; for found in ozonated effluent, 0 day: biological incubation 0 day; for found in ozonated effluent, 5 days: biological incubation 5 days; for found in ozonated effluent, 10 days: biological incubation 10 days; for found in ozonated effluent, 15 days: biological incubation 15 days; for found in ozonated effluent, 20 days: biological incubation 20 days

Structure (SMILES) | found in ozonated effluent, 0 day | found in ozonated effluent, 5 days | found in ozonated effluent, 10 days | found in ozonated effluent, 15 days | found in ozonated effluent, 20 days
CCCCCCCCCCCCCCCCCCCCC [henicosane (21), henicosane] | • | ◯ | ◯ | ◯ | ◯
CCCCCCCCCCCCCCCCCCCCCCCCC [pentacosane (20), pentacosane] | • | • | • | • | •
CC(C)CCCCCOC(=O)c1ccccc1C(=O)OCCCCCC(C)C [1,2-benzenedicarboxylic acid, diisooctyl] | • | • | • | • | •
CCCCCCCC(CCC)CCCCC (centres unmarked) [6-propyl tridecane (25), 6-propyl tridecane] | • | • | • | • | •
CCCCCCCCCCCCCCCCCCCCCCCC [tetracosane (24), tetracosane] | • | • | • | • | •
C1CCCCCCCCCCC1 [cyclododecane (29), cyclododecane] | • | • | • | • | •
O=Cc1cccc(C=O)c1-c1c(C=O)cccc1C=O [2,2′,6,6′-biphenyltetraaldehyde (3), 2,2′,6,6′-biphenyltetraaldehyde] | • | ◯ | ◯ | ◯ | ◯
CCCCCCCCCCCCCCCCCCCCCCCCCC [hexacosane (28), hexacosane] | • | • | • | • | •
CCCCOC(=O)C(C)C [propanoic acid, 2-methyl-, butyl ester] | • | ◯ | ◯ | ◯ | ◯
CCCCCCCCCCCCCCCCCCCCCCC [tricosane (23), tricosane] | • | • | • | • | •
CCCCCCCCCCCCCCCC [hexadecane (19), hexadecane] | • | ◯ | ◯ | ◯ | ◯
CCCCCCCCCCCCCC [tetradecane (17), tetradecane] | • | • | • | • | •
CCCCCCCCCCCCCCCC(=O)O [hexadecanoic acid (16), hexadecanoic acid] | • | ◯ | ◯ | ◯ | ◯
CCCCCCCCCCCCCCCCCCCCCC [docosane (22), docosane] | • | ◯ | ◯ | ◯ | ◯
CCCCOCCOCCO [ethanol, 2-[2-butoxyethoxy]-(14), ethanol, 2-[2-butoxyethoxy]-] | ◯ | ◯ | ◯ | ◯ | ◯
Cc1cc(C(C)(C)C)c(O)c(C(C)(C)C)c1 [butylated hydroxytoluene (11), butylated hydroxytoluene] | • | • | • | • | •
